Experimental findings from PubChem BioAssay AID720542 (National Center for Advancing Translational Sciences (NCATS), 2013) are described below.

This is a selection; strong and weak results do not stand in their true shares. The source made the active and inactive calls. The call rests on the fitted dose curve; in most records, active means well fitted inhibition curve with a large enough effect; inconclusive means small, poorly fitted or top-dose-only effect; inactive means no such curve, though single readings can be large or run the other way. Entries that show only a call come without a potency.

In this assay the test system is Plasmodium falciparum AMA1 (3D7) - RON2 peptide interaction. As to the kind of experiment: qHTS for Inhibitors of AMA1-RON; Towards Development of Antimalarial Drug Lead: Primary Screen. Further: nearly all actives have a fitted effect of over 45% in size. The following applies: AlphaScreen AMA1-biotinylated RON2 peptide binding; series mostly up to 58.2 µM. Background: In qHTS, concentration-response curves come from the screen itself.
`Cc1ccc(OP(=O)(Nc2ccc([N+](=O)[O-])cn2)Oc2ccc(C)cc2)cc1`: the Potency result is “inactive”.
With `[N-]=[N+]=NC1CCCCC1NC(=O)c1cc([N+](=O)[O-])cc([N+](=O)[O-])c1` (centres undefined), the Potency entry was “inactive”.
As for `Cc1ccc2nc3c(c(C)c2c1)CC(C(Cl)Cl)S3` (centres undefined), the entry is “inactive”.
For `NC(=O)Nc1ccc([As](=O)(O)O)cc1`, the Potency entry was “inactive”.
As for `N#CCCN(C(=O)COC(=O)C(O)(c1ccccc1)c1ccccc1)c1ccc(F)cc1`, the Potency result is “inactive”.
Consider `CCOP1(=S)c2c(C)nn(CCC#N)c2N=C(c2ccc(F)cc2)N1C` (centres undefined), for which the Potency entry is “inactive”.
Regarding `CN(C(=O)Cc1ccccc1)[C@@H]1CC[C@]2(CCCO2)C[C@H]1N1CCCC1`, the Potency entry was “inactive”.
Take `CN(C)C(=O)c1cc([N+](=O)[O-])cc2c1-c1c(cc([N+](=O)[O-])cc1[N+](=O)[O-])C2=O`: the Potency result is “inactive”.
As to `O=[N+]([O-])c1ccc2c(c1)nnn2O`, the Potency entry was “inactive”.
For `CN(C(=O)Cc1ccc(Cl)c(Cl)c1)[C@H]1CC[C@@]2(CCCO2)C[C@@H]1N1CCCC1`, the Potency entry is “inactive”.
Regarding `CCOP1(=S)c2c(C)nn(CCC#N)c2N=C(c2ccccc2F)N1C` (centres undefined), the Potency result is “inactive”.
In the case of `O=P(Nc1nccs1)(c1ccccc1)c1nc2ccccc2s1` (centres undefined) it was “inactive”.
Consider `O=P(Nc1nccs1)(Oc1ccccc1)Oc1ccccc1`, for which the Potency result was “inactive”.
As for `CS(=O)(=O)c1cc([N+](=O)[O-])c2no[n+]([O-])c2c1`, the entry is “inactive”; as for `O=C(O)COc1ccc([As](=O)(O)O)cc1[N+](=O)[O-]`, “inactive”.
As for `Nc1ccccc1[As](=O)(O)c1ccccc1`, the Potency result was “inactive”.
As for `Nc1cccc2c([As](=O)(O)O)cccc12`, the entry is “inactive”.
Turning to `CCCOP(=S)(Nc1nc(N)cc(=O)[nH]1)OCCC`, the Potency result is “inactive”.
With `COc1cc(C2NCCC3(OCCO3)C2(C)C)cc(OC)c1OC` (centres undefined), the Potency result is “inactive”.
For `CCOP(=O)(Nc1cccc2ccccc12)OCC`, the Potency entry is “inactive”.
Regarding `O=C(OC1CN2CCC1CC2)c1ccc(Cl)cc1` (centres undefined), the Potency entry was “inactive”.
Take `COc1cc(C(=O)NCC2(N3CCOCC3)CCCCC2)cc(Cl)c1OC(C)C`: the Potency entry was “inactive”.
As for `O=[As](O)(O)c1cccnc1`, the Potency result is “inactive”.
Regarding `CS(=O)(=O)c1ccc(Cl)c(NC(=O)COC(=O)C(O)(c2ccccc2)c2ccccc2)c1`, the Potency entry is “inactive”.
As for `O=[As](O)(c1cccc(O)c1)c1cccc(O)c1`, the entry is “inactive”.
Turning to `Cc1cccc(OCC(=O)OC2CN3CCC2CC3)c1` (centres undefined), the Potency entry was “inactive”.
As for `COc1ccccc1CNC(=O)COC(=O)C(O)(c1ccccc1)c1ccccc1`, the Potency result was “inactive”.
Regarding `CN(C(=O)Cc1ccc(Cl)c(Cl)c1)[C@@H]1CCCC[C@H]1N1CCCC1`, the Potency result was “inactive”.
As for `CC(C)/C=N\N=C(\N)N[N+](=O)[O-]`, the Potency result was “inactive”.
`CCC1=CC2Cc3nc4ccc(Cl)cc4c(N)c3C(C1)C2` (centres undefined): the Potency result is “inactive”.
In the case of `O=P1(Nc2ccccn2)COc2ccccc2OC1` it was “inactive”.
Turning to `CCOP(=O)(NC(=NC(C)c1ccccc1)NC(C)c1ccccc1)OCC` (centres undefined), the Potency entry is “inactive”.
On to `CN(CCCl)Cc1cc(Cl)c(NC2=NCCN2)c(Cl)c1`, for which the Potency entry is “inactive”.
As for `CCOP(=O)(Nc1ccc(C)cn1)OCC`, the Potency entry was “inactive”.
Take `Clc1n[nH]nc1-c1nn[nH][15n]1`: the Potency result was “inactive”.
Take `O=P1(N(CCCl)CCCl)NCCC(C(F)(F)F)O1` (centres undefined): the Potency result was “inactive”.
`CC(C)(C)C(=O)NC(Sc1ncccn1)C(Cl)(Cl)Cl` (centres undefined): the Potency result is “inactive”.
As for `Cc1ccc(S(=O)(=O)N(CCCN)CCCc2c(C)nc(N)[nH]c2=O)cc1`, the entry is “inactive”; as for `O=P1(Nc2ncccn2)COc2ccccc2OC1`, “inactive”.
With `Nc1cccc([As](=O)(O)c2ccccc2)c1`, the Potency result is “inactive”.
In the case of `NS(=O)(=O)c1cccc(NC(=O)COC(=O)C(O)(c2ccccc2)c2ccccc2)c1`, the Potency entry was “inactive”.
On to `O=P1(Nc2ccc(Br)cn2)COc2ccccc2OC1`, for which the Potency entry was “inactive”.
With `O=[As](O)(c1cccs1)c1cccs1`, the Potency result was “inactive”.
In the case of `Cc1ccc(OCC(=O)OC2CN3CCC2CC3)cc1` (centres undefined) it was “inactive”; in that of `Cc1nn(-c2ccccc2)c2c1P(=O)(N1CCOCC1)N(C)C(c1ccccc1)=N2` (centres undefined), “inactive”.
Turning to `Cc1ccc(C(=O)OC2CN3CCC2CC3)cc1` (centres undefined), the Potency entry was “inactive”.
Regarding `CC1CCC(C(C)C)C(OP(=O)(Nc2ccccn2)c2ccccc2)C1` (centres undefined), the Potency entry is “inactive”.
As for `CN(C)C1(CNC(=O)c2ccc(S(C)(=O)=O)cc2)CCCCC1`, the entry is “inactive”; as for `CCCC1OP(=O)(Nc2ccccc2)OCC1CC` (centres undefined), “inactive”.
